Experiment [1] deals with HIV-1 reverse transcriptase (Human immunodeficiency virus 1). The experiment is described as follows: Percent inhibition against DNA -dependent DNA polymerase (DDDP) of HIV-1 RT Nucleic Acid polymerase at dose 200 ug/mL.
The test system is the same in experiment [2]. Nature of the experiment: Percent inhibition against RNA-dependent DNA polymerase (RDDP) of HIV-1 RT Nucleic Acid polymerase at dose 200 ug/mL.
A short description of experiment [3]: Percent inhibition against TIBO-resistant HIV-1 RT Nucleic Acid polymerase at dose 200 ug/mL. The following applies: Human immunodeficiency virus 1.

Three molecules from ChEMBL document CHEMBL1129527, “Synthesis, chromatographic resolution, and anti-human immunodeficiency virus activity of (+/-)-calanolide A and its enantiomers” (J Med Chem, 1996) can be followed below.

A word on the inhibition: it is the change of the read-out against control, counted positive when it falls. A lower inhibition goes with a weak effect.

For `CCCc1cc(=O)oc2c3c(c4c(c12)OC(C)(C)C=C4)O[C@@H](C)C(C)[C@@H]3O` (mixture of isomers), the inhibition stood at 80.1% in experiment [1], 97.6% in experiment [2] and 81.2% in experiment [3].

As for `CCCc1cc(=O)oc2c3c(c4c(c12)OC(C)(C)C=C4)O[C@H](C)[C@@H](C)[C@@H]3O` [CALANOLIDE A], in experiment [3], the inhibition turned out to be 91.5%.

`CCCc1cc(=O)oc2c3c(c4c(c12)OC(C)(C)C=C4)O[C@@H](C)[C@H](C)[C@@H]3O` [COSTATOLIDE] returned an inhibition in experiment [3] of 0%.
